Anti-infective test results gathered from many reports (values: NIAID ChemDB through PubChem).

Common to all: whole-cell or culture tests

Percent inhibition refers to the dose given; in toxicity tests it is the harm to the cells. Zone: diameter of growth inhibition. MIC50, MIC90 and the like: level of inhibition, or share of isolates inhibited. ECn is the concentration giving n% inhibition of infection, replication or growth. Two numbers with a dash give a range or band. Neighbouring rows are from separate reports. Blank or dashed fields: not listed here.

SMILES	read by	tested at	endpoint	setting	strain	organism	value
O=C(CCn1ccnc1)c1cccc(O)c1	broth dilution	-	MIC	-	RTCC 1074	Candida kefyr	64 µg/mL
Fc1cc(F)c(B2Oc3ccccc3O2)c(F)c1	turbidity	-	MIC	-	-	Candida tenuis	125 µg/mL
C=CCc1ccc(O)c(OC)c1	turbidity	-	MIC90	-	2778	Candida tropicalis	500 µg/mL
O=C(c1ccccc1)C(c1ccccc1)n1cnc2ccccc21	broth dilution	-	MFC	-	-	Candida dubliniensis	256 µg/mL
CC1CC(=O)N(CCCc2ccccc2)C1=O	broth dilution / turbidity	-	MIC	-	CCC 134-2000	Candida lusitaniae	125 µg/mL
CCC(C)CC(C)CCCCCCCCC(=O)N[C@H]1C[C@@H](O)[C@H](NCCN)NC(=O)[C@@H]2[C@@H](O)CCN2C(=O)[C@H]([C@H](O)CCN)NC(=O)[C@H]([C@H](O)[C@@H](O)c2ccc(O)cc2)NC(=O)[C@@H]2C[C@@H](O)CN2C(=O)[C@H]([C@@H](C)O)NC1=O	-	-	MIC50	-	-	Candida dubliniensis	0.015–0.25 µg/mL
CCC(C)CC(C)CCCCCCCCC(=O)N[C@H]1C[C@@H](O)[C@H](NCCN)NC(=O)[C@@H]2[C@@H](O)CCN2C(=O)[C@H]([C@H](O)CCN)NC(=O)[C@H]([C@H](O)[C@@H](O)c2ccc(O)cc2)NC(=O)[C@@H]2C[C@@H](O)CN2C(=O)[C@H]([C@@H](C)O)NC1=O	broth dilution	-	MIC	-	UTHSC 11-586	Candida lusitaniae	2 µg/mL
Cc1ccc(-n2cc(C(C)(C)O)nn2)cc1C	broth dilution	2048 µg/mL	inhibition	-	URM 4889	Candida parapsilosis	0%
C[C@@H]1CC(=O)N(Cc2ccccc2)C1=O	broth dilution / turbidity	-	MIC	-	CCC 134-2000	Candida lusitaniae	31.3 µg/mL
COc1ccc(C2c3ccc4ccccc4c3Oc3nc(-c4cc5ccccc5oc4=O)[nH]c(=O)c32)cc1	agar diffusion / agar	150 µg/mL	zone	-	-	Candida rugosa	20 mm
Cc1nc2c(s1)C(=O)C(Nc1ccc(Br)cc1)=C(Cl)C2=O	broth dilution	-	MIC	-	KCCM 50662	Candida utilis	25 µg/mL
CC(=O)OC[C@H]1O[C@@H](O[C@@H]2[C@@H](N=[N+]=[N-])[C@H](O)[C@H](O)[C@H]3OC(C)(C)O[C@H]32)[C@H](OC(C)=O)[C@@H](OC(C)=O)[C@H]1OC(C)=O	broth dilution / turbidity	125 µg/mL	inhibition	-	C 131	Candida tropicalis	17.82%
O=C1S/C(=C\c2ccoc2)C(=O)N1CC(O)(Cn1nccn1)c1ccc(F)cc1F	-	-	MIC50	-	Fluconazole-resistant 805	Candida colliculosa	0.58 µg/mL
C[C@@H]1C(=O)N(Cc2ccccc2)C(=O)[C@@H]1C	broth dilution / turbidity	-	MIC	-	CCC 134-2000	Candida lusitaniae	62.5 µg/mL
CCOc1ccc2nc3cc(N=C4NC(=O)/C(=C\c5ccc([N+](=O)[O-])cc5)S4)ccc3c(N)c2c1	broth dilution	-	MFC	-	ATCC 8614	Candida kefyr	500 µg/mL
Clc1ccc(C(c2ccccc2)N2CCN(CCn3cncn3)CC2)cc1	agar	-	MIC90	-	-	Candida glabrata	32 µg/mL
COc1ccc(/C=N\O)cc1	broth dilution	-	MFC	-	-	Candida lipolytica	6620 µM
O=C(NN=Cc1ccc(Cl)cc1)c1snnc1C(F)(F)F	agar diffusion / agar	150 µg/mL	zone	-	NCIM 3462	Candida rugosa	0 mm
Cc1ccc(C2c3ccc4ccccc4c3Oc3nc(-c4cc5ccccc5oc4=O)[nH]c(=O)c32)cc1	agar diffusion / agar	100 µg/mL	zone	-	-	Candida rugosa	11 mm
O/N=C\c1ccc(F)cc1	-	-	MIC100	-	-	Candida lipolytica	7200 µM
CC(C)(O)c1cn(-c2ccc([N+](=O)[O-])cc2)nn1	broth dilution	2048 µg/mL	inhibition	-	URM 3716	Candida albicans	0%
Cc1ccc(N2C(=O)CC(C)C2=O)cc1	broth dilution / turbidity	-	MIC	-	CCC 134-2000	Candida lusitaniae	250 µg/mL
Clc1ccc(C(c2ccccc2)n2ccnc2)cc1	broth dilution	-	MFC	-	-	Candida dubliniensis	16 µg/mL
CCc1c(OC)ccc2sc(C)nc12	broth dilution	-	MIC	-	KCCM 50662	Candida utilis	50 µg/mL
O=c1[nH]c(-c2cc3ccccc3oc2=O)nc2c1C(c1ccc(Cl)cc1)c1ccc3ccccc3c1O2	agar diffusion / agar	100 µg/mL	zone	-	-	Candida rugosa	9 mm
Cc1ccc(NC2=C(Cl)C(=O)c3nc(C)sc3C2=O)cc1	broth dilution	-	MIC	-	KCCM 50662	Candida utilis	6.3 µg/mL
OC(CCn1ccnc1)c1cccc(C(O)c2ccc(Br)cc2)c1	broth dilution	-	MIC	-	RTCC 1019	Candida kefyr	2 µg/mL
OB(O)c1c(F)cc(F)cc1F	turbidity	-	MFC	-	-	Candida tenuis	500 µg/mL
C/C(=N/O)C(Cl)(Cl)Cl	-	-	MIC100	-	-	Candida lipolytica	6450 µM
C[C@@H]1C(=O)N(CCCCc2ccccc2)C(=O)[C@@H]1C	broth dilution / turbidity	-	MIC	-	CCC 134-2000	Candida lusitaniae	62.5 µg/mL
Cc1ccc(C(O)c2cccc(C(O)CCn3ccnc3)c2)cc1	broth dilution	-	MIC	-	RTCC 1377	Candida guilliermondii	>64 µg/mL
O=[N+]([O-])c1cccc(/C=N\O)c1	-	-	MIC	-	-	Candida famata	3010 µM
O=C(c1ccccc1)C(c1ccccc1)n1ccnc1	broth dilution	-	MFC	-	-	Candida krusei	>256 µg/mL
CCCCCOc1ccc(-c2cc(-c3ccc(C(=O)N[C@H]4C[C@@H](O)[C@@H](O)NC(=O)[C@@H]5[C@@H](O)[C@@H](C)CN5C(=O)[C@H]([C@H](O)CC(N)=O)NC(=O)[C@H]([C@H](O)[C@@H](O)c5ccc(O)c(OS(=O)(=O)O)c5)NC(=O)[C@@H]5C[C@@H](O)CN5C(=O)[C@H]([C@@H](C)O)NC4=O)cc3)no2)cc1	broth dilution	-	MIC90	-	Fluconazole-resistant	Candida spp.	0.03 µg/mL
OB1OC(N2CCCCC2)c2ccccc21	turbidity	-	MIC	-	-	Candida tenuis	7.8 µg/mL
CCC(C)CC(C)CCCCCCCCC(=O)N[C@H]1C[C@@H](O)[C@H](NCCN)NC(=O)[C@@H]2[C@@H](O)CCN2C(=O)[C@H]([C@H](O)CCN)NC(=O)[C@H]([C@H](O)[C@@H](O)c2ccc(O)cc2)NC(=O)[C@@H]2C[C@@H](O)CN2C(=O)[C@H]([C@@H](C)O)NC1=O	broth dilution	-	EC90	pH 6	40 isolates	Candida glabrata	0.5 µg/mL
CN(C)c1ccc(C2c3ccc4ccccc4c3Oc3nc(-c4cc5ccccc5oc4=O)[nH]c(=O)c32)cc1	agar diffusion / agar	100 µg/mL	zone	-	-	Candida rugosa	12 mm
Nc1ncccc1-c1cc(Cc2ccc(COc3ccccn3)cc2)no1	broth dilution	-	MIC50	-	Fluconazole-resistant	Candida spp.	0.016 µg/mL
O=C(CCn1ccnc1)c1ccc(-c2ccccc2)cc1	broth dilution	-	MIC	-	RTCC 1074	Candida kefyr	2 µg/mL
CCOC(=O)c1c(N)oc2c1cc(O)c1sc(C)nc12	broth dilution	-	MIC	-	KCCM 50662	Candida utilis	50 µg/mL
CC(C)(O)c1cn(-c2ccccc2)nn1	broth dilution	2048 µg/mL	inhibition	-	URM 4818	Candida parapsilosis	0%
O=c1[nH]c(-c2cc3ccccc3oc2=O)nc2c1C(c1ccccc1Cl)c1ccc3ccccc3c1O2	agar diffusion / agar	100 µg/mL	zone	-	-	Candida rugosa	11 mm
CC[C@@H]([C@H](C)O)n1ncn(-c2ccc(N3CCN(c4ccc(OC[C@@H]5CO[C@@](Cn6cncn6)(c6ccc(F)cc6F)C5)cc4)CC3)cc2)c1=O	broth dilution	-	EC90	pH 5	40 isolates	Candida glabrata	>16 µg/mL
OB1OC(N2CCOCC2)c2ccccc21	turbidity	-	MIC	-	-	Candida tenuis	15.6 µg/mL
O/N=C/c1ccc(O)cc1	-	-	MIC	-	-	Candida lipolytica	>7290 µM
O=C(CCn1ccnc1)c1ccc(Br)cc1	broth dilution	-	MIC	-	RTCC1248	Candida guilliermondii	32 µg/mL
CC(C)(O)c1cn(-c2cccc([N+](=O)[O-])c2)nn1	broth dilution	2048 µg/mL	inhibition	-	URM 4261	Candida parapsilosis	0%
N=c1oc2ccccc2c2csc(N)c12	broth dilution	-	MIC	-	-	Candida guilliermondii	>256 µg/mL
C[C@@H]1CC(=O)N(c2ccc(Br)cc2)C1=O	broth dilution / turbidity	-	MIC	-	CCC 134-2000	Candida lusitaniae	62.5 µg/mL
COc1ccc(C(c2ccc(OC)cc2)n2cncn2)cc1	agar	-	MIC90	-	-	Candida dubliniensis	>256 µg/mL
C[C@@H]1C(=O)N(c2ccccc2)C(=O)[C@@H]1C	broth dilution / turbidity	-	MIC	-	CCC 134-2000	Candida lusitaniae	62.5 µg/mL
C[C@@H](c1ncncc1F)[C@](O)(Cn1cncn1)c1ccc(F)cc1F	-	-	MIC50	-	-	Candida kefyr	0.008–0.015 µg/mL
O/N=C\c1cccs1	-	-	MIC	-	-	Candida lipolytica	3930 µM
C[C@@H]1[C@H](O)[C@@H](C)/C=C/C=C/C=C/C=C/C=C/C=C/C=C/[C@H](O[C@@H]2O[C@H](C)[C@@H](O)[C@H](N)[C@@H]2O)C[C@@H]2O[C@](O)(C[C@@H](O)C[C@@H](O)[C@H](O)CC[C@@H](O)C[C@@H](O)CC(=O)O[C@H]1C)C[C@H](O)[C@H]2C(=O)O	agar diffusion / agar	100 µg/mL	zone	-	NCIM 3462	Candida rugosa	21 mm
O=C(CCn1ccnc1)c1cccc(C(O)c2ccc(Cl)cc2)c1	broth dilution	-	MIC	-	RTCC 1377	Candida guilliermondii	8 µg/mL
Clc1ccccc1C(c1ccccc1)(c1ccccc1)n1ccnc1	broth dilution	-	EC90	pH 5	40 isolates	Candida glabrata	8 µg/mL
O=C(NN=C1CCCCCC1)c1snnc1C(F)(F)F	agar diffusion / agar	150 µg/mL	zone	-	NCIM 3462	Candida rugosa	0 mm
C[C@@H](c1ncncc1F)[C@](O)(Cn1cncn1)c1ccc(F)cc1F	broth dilution	-	EC90	pH 4	40 isolates	Candida glabrata	>16 µg/mL
CC(=NNC(=O)c1snnc1C(F)(F)F)c1ccccc1	agar diffusion / agar	150 µg/mL	zone	-	NCIM 3462	Candida rugosa	0 mm

Repeating the first 6 entries:

SMILES	read by	tested at	endpoint	setting	strain	organism	value
O=C(CCn1ccnc1)c1cccc(O)c1	broth dilution	-	MIC	-	RTCC 1074	Candida kefyr	64 µg/mL
Fc1cc(F)c(B2Oc3ccccc3O2)c(F)c1	turbidity	-	MIC	-	-	Candida tenuis	125 µg/mL
C=CCc1ccc(O)c(OC)c1	turbidity	-	MIC90	-	2778	Candida tropicalis	500 µg/mL
O=C(c1ccccc1)C(c1ccccc1)n1cnc2ccccc21	broth dilution	-	MFC	-	-	Candida dubliniensis	256 µg/mL
CC1CC(=O)N(CCCc2ccccc2)C1=O	broth dilution / turbidity	-	MIC	-	CCC 134-2000	Candida lusitaniae	125 µg/mL
CCC(C)CC(C)CCCCCCCCC(=O)N[C@H]1C[C@@H](O)[C@H](NCCN)NC(=O)[C@@H]2[C@@H](O)CCN2C(=O)[C@H]([C@H](O)CCN)NC(=O)[C@H]([C@H](O)[C@@H](O)c2ccc(O)cc2)NC(=O)[C@@H]2C[C@@H](O)CN2C(=O)[C@H]([C@@H](C)O)NC1=O	-	-	MIC50	-	-	Candida dubliniensis	0.015–0.25 µg/mL